Measured values from several laboratories, pooled; numbers as filed in NIAID ChemDB.

All rows: whole-cell or culture tests; organism: Candida glabrata

ECn: concentration that inhibits the pathogen or its effect by n%. Blank or dashed fields: not listed here. A number after MIC or MFC names an inhibition level or a share of isolates. Rows are shuffled and stem from different studies.

| structure | endpoint | read by | strain or isolate | setting | result |
|---|---|---|---|---|---|
| CC1(C)S[C@@H]2[C@H](NC(=O)[C@H](N)c3ccccc3)C(=O)N2[C@H]1C(=O)O | MIC | broth dilution | 0902 | - | >100 µg/mL |
| COC(=O)c1ccc(C[C@H](C(=O)OC)[C@@H](O)C(=O)OC)cc1 | MIC | - | DSM 11226 | - | >4 µg/mL |
| C[C@H]1[C@H](O)[C@@H](C)/C=C/C=C/C=C/C=C/C=C/C=C/C=C/[C@H](O[C@@H]2O[C@H](C)[C@@H](O)[C@H](N)[C@@H]2O)C[C@@H]2O[C@](O)(C[C@@H](O)C[C@@H](O)CC[C@H](O)[C@@H](O)C[C@@H](O)CC(=O)O[C@H]1C)C[C@H](O)[C@H]2C(=O)O | MIC100 | broth dilution | - | - | <0.3 µg/mL |
| O=[N+]([O-])c1ccc(/C=N\O)cc1 | MIC100 | - | - | - | 3010 µM |
| O=C1S/C(=C\c2ccoc2)C(=O)N1CC(O)(Cn1nccn1)c1ccc(F)cc1F | MIC80 | - | - | - | 0.29 µg/mL |
| O=C1c2c(O)ccc(O)c2C(=O)c2c(NCCNCCO)ccc(NCCNCCO)c21 | MIC | - | ATCC 90030 | - | 48.6 µM |
| Nc1[nH]c(=O)ncc1F | MIC | broth dilution | 40 isolates | pH 7 | 0.125 µg/mL |
| COc1ccc(OC/C(=N/O)c2ccccc2)cc1 | MIC | broth dilution | ATCC 90030 | 24 h | >125 µg/mL |
| O=C1c2ccccc2CC1Cn1ccnc1 | MIC | broth dilution | RTCC 1040 | - | >64 µg/mL |
| C[C@H]1[C@H](O)[C@@H](C)/C=C/C=C/C=C/C=C/C=C/C=C/C=C/[C@H](O[C@@H]2O[C@H](C)[C@@H](O)[C@H](N)[C@@H]2O)C[C@@H]2O[C@](O)(C[C@@H](O)C[C@@H](O)CC[C@H](O)[C@@H](O)C[C@@H](O)CC(=O)O[C@H]1C)C[C@H](O)[C@H]2C(=O)O | MIC | broth dilution | 537 | - | 0.5 µg/mL |
| COc1cccc(OCC(=O)c2ccccc2)c1 | MIC | broth dilution | ATCC 90030 | 24 h | >125 µg/mL |
| O/N=C/c1cccc[n+]1Cc1ccc(Br)s1.[Cl-] | EC50 | broth dilution | - | - | >20 µg/mL |
| O=C(COc1cccc(Cl)c1)c1ccccc1 | MIC | broth dilution | ATCC 90030 | 24 h | >125 µg/mL |
| Clc1ccc(C(c2ccccc2)n2ccnc2)cc1 | MFC | broth dilution | - | - | 2 µg/mL |
| OC(CCn1ccnc1)c1cccc(C(O)c2ccc(Cl)c(Cl)c2)c1 | MIC | broth dilution | RTCC 1040 | - | >64 µg/mL |
| CCCCCCCCCCCC[n+]1cccc2ccccc21 | MIC | broth dilution | 20/I | 24 h | 0.00781 µg/mL |
| Cc1ccc(-c2c3c(N)c4c(nc3nc3c2c(C)nn3-c2ccccc2)CCC4)cc1 | MIC50 | broth dilution / absorbance | CCC 115 | - | >250 µg/mL |
| O=C1S/C(=C\c2cccs2)C(=O)N1CC(O)(Cn1nccn1)c1ccc(F)cc1F | MIC80 | - | - | - | 0.56 µg/mL |
| CCC[CH2][Sn+3].[S-]C(=Nc1ccccc1Cl)N/N=C(\c1ccccc1)c1ccccn1 | MIC | broth dilution | ATCC 90030 | - | 26.12 µM |
| Clc1ccc(C(c2ccccc2)N2CCN(CCn3cncn3)CC2)cc1 | MIC90 | agar | - | - | 32 µg/mL |
| CCC[CH2][Sn+3].O=[N+]([O-])c1ccccc1N=C([S-])N/N=C(\c1ccccc1)c1ccccn1 | MIC | broth dilution | ATCC 90030 | - | 3.21 µM |
| CC1=C2C(=O)c3c(C)coc3C[C@@]2(C)[C@H](O)C[C@H]1O | MIC | broth dilution | ATCC 90030 | - | >256 µg/mL |
| N#Cc1ccc(/C=N/NC(=O)c2ccc(CNc3nc4ccccc4[nH]3)cc2)cc1 | MIC | broth dilution | ATCC 36583 | - | 25 µg/mL |
| COc1ccccc1OCC(=O)c1ccccc1 | MIC | broth dilution | ATCC 90030 | 48 h | >125 µg/mL |
| C=CCc1ccc(O)c(OC)c1 | MIC90 | turbidity | 2965 | - | 500 µg/mL |
| Cc1ccc(-c2c3c(N)c4c(nc3nc3c2c(C)nn3-c2ccccc2)CCCCC4)cc1 | MIC80 | broth dilution / absorbance | CCC 115 | - | >250 µg/mL |
| CC[C@@H]([C@H](C)O)n1ncn(-c2ccc(N3CCN(c4ccc(OC[C@@H]5CO[C@@](Cn6cncn6)(c6ccc(F)cc6F)C5)cc4)CC3)cc2)c1=O | MIC | - | 03-3245 + 04-1724 | - | 0.25 µg/mL |
| O=C1S/C(=C\c2ccncc2)C(=O)N1CC(O)(Cn1nccn1)c1ccc(F)cc1F | MIC80 | - | - | - | 1.13 µg/mL |
| O=C(N/N=C/c1ccc(F)cc1)c1ccc(CNc2nc3ccccc3[nH]2)cc1 | MIC | broth dilution | ATC 36583 | - | 50 µg/mL |
| COc1cc(/C=C2\SC(=S)NC2=O)cc(OC)c1OCC(O)(Cn1cncn1)c1ccc(F)cc1F | MIC50 | broth dilution | ATCC 90030 | - | 16 µg/mL |
| O/N=C/c1cc[n+](Cc2cc(C[n+]3ccc(/C=N/O)cc3)on2)cc1.[Br-].[Br-] | EC50 | broth dilution | - | - | >20 µg/mL |
| C/C(=N\NC([S-])=Nc1ccccc1F)c1ccccn1.CCC[CH2][Sn+3] | MIC | broth dilution | ATCC 90030 | - | 3.74 µM |
| O=C1S/C(=C\c2ccc3ccccc3n2)C(=O)N1CC(O)(Cn1nccn1)c1ccc(F)cc1F | MIC80 | - | - | - | 0.51 µg/mL |
| Cc1ccc(-c2c3c(N)c4c(nc3nc3c2c(C)nn3-c2ccccc2)CCCC4)cc1 | MIC80 | broth dilution / absorbance | CCC 115 | - | >250 µg/mL |
| CC1=C2C3=C4[C@](C)([C@@H]5C[C@@H]5[C@@]4(O)C[C@@H]4[C@]35OC(=O)C3=C5C[C@H]5[C@](O)(COC(=O)/C(C)=C/COC(=O)CCC(=O)OC3)[C@H]3C[C@H]3[C@]45C)[C@@H](O)[C@]2(O)OC1=O | MIC | broth dilution | ATCC 90030 | - | >256 µg/mL |
| CCN(CC)c1ccc(/C=N/NC(=O)c2ccc(CNc3nc4ccccc4[nH]3)cc2)cc1 | MIC | broth dilution | ATCC 36583 | - | 50 µg/mL |
| O=C(CCn1ccnc1)c1ccc2ccccc2c1 | MIC | broth dilution | RTCC 1054 | - | 64 µg/mL |
| Clc1ccc(COC(Cn2ccnc2)c2ccc(Cl)cc2Cl)c(Cl)c1 | EC90 | broth dilution | 40 isolates | pH 7 | 0.5 µg/mL |
| N#Cc1ccc(/C=C2\SC(=O)N(CC(O)(Cn3nccn3)c3ccc(F)cc3F)C2=O)cc1 | MIC80 | - | - | - | 0.27 µg/mL |
| COc1cc(NC(C)CCCNC(=O)CCC(NC(=O)[C@H](N)CCCCN)C(=O)O)c2nc(C(C)(C)C)ccc2c1 | MIC | broth dilution | - | - | >20 µg/mL |
| O/N=C/c1ccc[n+](Cc2cc(C[n+]3cccc(/C=N/O)c3)on2)c1.[Br-].[Br-] | EC50 | broth dilution | - | - | >20 µg/mL |
| O=C(CCn1ccnc1)c1cccc2ccccc12 | MIC | broth dilution | RTCC 1054 | - | >64 µg/mL |
| NC(=O)c1cc[n+](Cc2ccc(C[n+]3ccc(/C=N/O)cc3)s2)cc1.[Cl-].[Cl-] | EC50 | broth dilution | - | - | >20 µg/mL |
| O/N=C\c1cccs1 | MIC | - | - | - | 3930 µM |
| C[C@@H](c1ncncc1F)[C@](O)(Cn1cncn1)c1ccc(F)cc1F | MIC | broth dilution | 8661 | - | 1 µg/mL |
| CC1CC(=O)N(c2ccc(Br)cc2)C1=O | MIC | broth dilution / turbidity | CCC 115-2000 | - | 125 µg/mL |
| O=P(O)(O)OP(=O)(O)OP(=O)(O)O | MIC | broth dilution | H30 | - | 390 µg/mL |
| OC(Cn1cncn1)(Cn1cncn1)c1ccc(F)cc1F | MIC80 | - | - | - | 0.29 µg/mL |
| CN[C@H]1CC[C@@H](c2ccc(Cl)c(Cl)c2)c2ccccc21 | MFC | broth dilution | Clinical isolate PAT2ISO3 | - | 16 µg/mL |
| Cc1ccc(/C=N/NC(=O)c2ccc(CNc3nc4ccccc4[nH]3)cc2)cc1 | MIC | broth dilution | ATCC 36583 | - | 50 µg/mL |
| OC(CCn1ccnc1)c1ccc(Br)cc1 | MIC | broth dilution | RTCC 1040 | - | 64 µg/mL |
| O/N=C(\COc1ccccc1)c1ccccc1 | MIC | broth dilution | ATCC 90030 | 48 h | >125 µg/mL |
| C[C@H]1[C@H](O)[C@@H](C)/C=C/C=C/C=C/C=C/C=C/C=C/C=C/[C@H](O[C@@H]2O[C@H](C)[C@@H](O)[C@H](N)[C@@H]2O)C[C@@H]2O[C@](O)(C[C@@H](O)C[C@@H](O)CC[C@H](O)[C@@H](O)C[C@@H](O)CC(=O)O[C@H]1C)C[C@H](O)[C@H]2C(=O)O | MIC99 | broth dilution / absorbance | ATCC 90030 | - | 0.39 µM |
| CC(C)(CS(=O)(=O)[O-])N(Cl)Cl | MIC | - | 90030 | - | 16 µg/mL |
| O=C(c1ccccc1)C(c1ccccc1)n1nnc2ccccc21 | MFC | broth dilution | - | - | >256 µg/mL |
| Nc1nc(=O)n([C@H]2O[C@@H](CO)[C@H](O)[C@@H]2O)cc1F | MIC | broth dilution | ATCC 24220 | - | 0.75 µg/mL |
| CN(C)c1ccc(/C=C2\SC(=O)N(CC(O)(Cn3nccn3)c3ccc(F)cc3F)C2=O)cc1 | MIC80 | - | - | - | 4.12 µg/mL |
| C/C1=C\C(=O)c2c(C)coc2C/C(C)=C/CC1 | MIC | broth dilution | ATCC 90030 | - | >256 µg/mL |
| OC(CCn1ccnc1)c1cccc(C(O)c2ccc(Br)cc2)c1 | MIC | broth dilution | RTCC 1054 | - | >64 µg/mL |
| O/N=C\c1ccc(O)cc1 | MIC100 | broth dilution | - | - | >7290 µM |
| Clc1ccc(C(c2ccccc2)N2CCN(CCn3ccnc3)CC2)cc1 | MFC | broth dilution | - | - | >256 µg/mL |
| Nc1ncccc1-c1cc(Cc2ccc(COc3ccccn3)cc2)no1 | MIC | broth dilution | 8659 | - | 0.03 µg/mL |
| C[C@@H](c1ncncc1F)[C@](O)(Cn1cncn1)c1ccc(F)cc1F | MIC | broth dilution | 40 isolates | pH 5 | 4 µg/mL |
| O/N=C\c1ccccc1Cl | MIC | - | - | - | 2850 µM |
| O/N=C(/COc1ccc(F)cc1)c1ccccc1 | MIC | broth dilution | ATCC 90030 | 24 h | 31.25 µg/mL |
| NN(Cc1ccccc1)CC(O)(Cn1cncn1)c1ccc(F)cc1F | MIC80 | - | ATCC 34138 | - | 2 µg/mL |
| O=C1C=CC[C@H](/C=C/c2ccccc2)O1 | MIC | broth dilution | - | - | 62.1 µg/mL |
| COc1cccc2c1C(=O)c1c(O)c3c(c(O)c1C2=O)C[C@@](O)(C(=O)CO)C[C@@H]3O[C@H]1C[C@H](N)[C@@H](O)[C@H](C)O1 | MIC | - | ATCC 90030 | - | >100 µM |
| CC1C(=O)N(CCCCc2ccccc2)C(=O)C1C | MIC | broth dilution / turbidity | CCC 115-2000 | - | 125 µg/mL |
| NC(=S)N/N=C/c1ccsc1/C=N/NC(N)=S | MIC80 | broth dilution | LMA 90-1085 | - | >250 µg/mL |
| CC(C)c1cccc(-c2nc3[n+]([nH]2)CCN([C@H](C)[C@](O)(C[n+]2cnc[nH]2)c2ccc(F)cc2F)C3)c1 | MIC | - | 537 | - | 0.125 µg/mL |
| Cc1ccccc1N1C(=O)C[C@@H](C)C1=O | MIC | broth dilution / turbidity | CCC 115-2000 | - | 125 µg/mL |
| C[C@H]1[C@H](O)[C@@H](C)/C=C/C=C/C=C/C=C/C=C/C=C/C=C/[C@H](O[C@@H]2O[C@H](C)[C@@H](O)[C@H](N)[C@@H]2O)C[C@@H]2O[C@](O)(C[C@@H](O)C[C@@H](O)CC[C@H](O)[C@@H](O)C[C@@H](O)CC(=O)O[C@H]1C)C[C@H](O)[C@H]2C(=O)O | MFC | broth dilution | - | - | 12.5 µg/mL |
| Cc1ccc(/C=N/Nc2ccnc3cc(Cl)ccc23)cc1 | MFC | - | - | - | 40 µg/mL |
| CC(C)S(=O)(=O)N1CCN(c2cnn(-c3cc(F)cc(F)c3)c(=O)c2OC2CCC(F)C2)CC1 | MIC | broth dilution | C624 | - | 0.03 µg/mL |
| C/C(=N/O)C(Cl)(Cl)Cl | MIC100 | - | - | - | 6450 µM |
| COC(=O)[C@H]1[C@@H]2C[C@@H](O[C@@H]3O[C@H](C)[C@@H](O)[C@H](N)[C@@H]3O)/C=C/C=C/C=C/C=C/C=C/C=C/C=C/[C@H](C)[C@@H](O)[C@H](C)[C@H](C)OC(=O)C[C@H](O)C[C@H](O)[C@@H](O)CC[C@H](O)C[C@H](O)C[C@](O)(C[C@@H]1O)O2 | EC90 | broth dilution | 40 isolates | pH 4 | 4 µg/mL |
| O/N=C/c1ccc(O)cc1 | MIC | - | - | - | 7290 µM |
| CCCC[C@@H](C)/C=C(C)/C=C(\C)C(=O)N/C(=C/[C@@](C)(O)/C=C/C=C/C=C/C(=O)NC1=C(O)CCC1=O)C(=O)[C@@H]1CO1 | MIC | broth dilution | 2 | - | 25 µM |